Results of unrelated studies side by side (data: NIAID ChemDB).

Common to all: growth or infection tests; agent: HIV-1; measure: fold resistance

Lines come from different laboratories, so protocols vary. Fold resistance has wild type as its base. An empty or dashed field is not shown.

SMILES | changes | strain or isolate | read by | cells | result
Nc1ccn([C@H]2CC[C@@H](CO)O2)c(=O)n1 | RT-M184V P294S | HXB2-D184+294 (RT M184V P294S) | RT activity | MT-4 | 5.91
Nc1ccn([C@H]2CC[C@@H](CO)O2)c(=O)n1 | RT-Y181C | IIIB-Nevirapine(0.1)(RT-Y181C) | syncytia | CEM | 0.12
Cc1cc(C)cc(S(=O)(=O)c2c(C(N)=O)[nH]c3ccc(Cl)cc23)c1 | RT-K103N Y181C | - | cytopathic effect / MTT | MT-4 | 133
C[C@H](CNC(=S)Nc1ccc(Br)cn1)c1ccccc1 | RT-Y181C | NNRTI-resistant (RT Y181C) A17 | p24 | PBMC | 40
CCc1c(C)[nH]c(=O)c(N(C)C)c1C(=O)c1cccc(/C=C/C#N)c1 | RT-K101E K103N | - | cytopathic effect / MTT | MT-4 | 16
C[C@@H](CNC(=S)Nc1ccc(Cl)cn1)c1ccccc1 | RT-Y181C | NNRTI-resistant (RT Y181C) A17 | p24 | PBMC | >300
Nc1nc(NC2CC2)c2ncn([C@H]3C=C[C@@H](CO)C3)c2n1 | RT-Q151M | - | cytopathic effect / MTT | MT-2 | 2.2
Cc1ccnc2c1NC(=O)c1cccnc1N2C1CC1 | RT-A98G Y181C | BCF08 | - | PBMC | 100
CCc1c(C)[nH]c(=O)c(N(C)C)c1C(=O)c1cccc(Br)c1 | RT-Y181C | - | cytopathic effect / MTT | MT-4 | 79
Cc1cn([C@H]2C[C@H](N=[N+]=[N-])[C@@H](CO)O2)c(=O)[nH]c1=O | RT-D67N K70R T215F K219Q | clinical isolate A012D (RT D67N K70R T215F K219Q) | plaque count | HT4 + HT4-6C | 200
O=C1Nc2ccc(Cl)cc2[C@@](C#CC2CC2)(C(F)(F)F)N1 | RT-L100I K103N | - | - | - | 550
COc1ccc(S(=O)(=O)N(CC(C)C)C[C@@H](O)[C@H](Cc2ccccc2)NC(=O)O[C@H]2CCO[C@H]3OC[C@H](O)[C@H]32)cc1 | L10I I15V K20R L24I V32I M36I M46I I54V I62V L63P K70Q V82A L88M | NL4-3 | p24 / luminescence | MT-4 | 4
C/C=C/CSc1cc(NC(=S)c2ccsc2C)ccc1Cl | RT-M184V | NL4-3 (RT M184V) | cytopathic effect / XTT | CEM + CEM-SS | 2
Cc1cn([C@H]2C[C@H](N=[N+]=[N-])[C@@H](CO)O2)c(=O)[nH]c1=O | RT-I178L | NL4-3 | p24 | MT-2 | 0.667
Cc1ccc(S(=O)(=O)c2c(C(=O)NNCCO)[nH]c3ccc(Cl)cc23)c(C)c1 | RT-Y181C | - | cytopathic effect / MTT | MT-4 | 12.5
Cc1cn([C@H]2C=C[C@@H](CO)O2)c(=O)[nH]c1=O | RT-Q151M A62V | - | cytopathic effect / MTT | MT-2 | >8.9
CCc1cc([C@](C#CC2CC2)(OCc2ccccc2)C(F)(F)F)c(=O)[nH]c1C | RT-K103N | - | - | - | 2.46
CCc1c(C)[nH]c(=O)c(N(C)C)c1Cc1cccc(/C=C/C#N)c1 | RT-Y188L | - | cytopathic effect / MTT | MT-4 | 395
CCc1c(Sc2ccccn2)n(COCc2ccccc2)c(=O)[nH]c1=O | RT-Y181C | UC040-R (RT-Y181C) | cytopathic effect / XTT | CEM + CEM-SS | 110
CCc1c(C)[nH]c(=O)c(N(C)C)c1C(=O)c1cc(Cl)cc(Cl)c1 | RT-K103N | - | cytopathic effect / MTT | MT-4 | 6.5
CC(C)(C)C(=O)c1sc(C(=O)NCCc2ccccc2)c(O)c1O | INTG-N155H | - | - | - | 1
CC(C)CN(C[C@@H](O)[C@H](Cc1ccccc1)NC(=O)O[C@H]1CCO[C@H]2OCC[C@H]21)S(=O)(=O)c1ccc2nc(NC3CC3)sc2c1 | L10I I54V K20R L24I V32I L33F M36I M46I I54M L63P K70Q V82I I84V L89M | NL4-3 | p24 / luminescence | MT-4 | >1667
Cc1cn([C@H]2C[C@H](N=[N+]=[N-])[C@@H](CO)O2)c(=O)[nH]c1=O | RT-V106A | BaL | p24 | Macrophage + Monocytes/macrophages | 1
CC(C)=CCN1Cc2cc(Cl)cc3[nH]c(=S)n(c23)C[C@@H]1C | RT-A98G Y181C | BCF03 | - | PBMC | >312.5
CCNc1cccnc1N1CCN(C(=O)c2cc3cc(OC)ccc3[nH]2)CC1 | RT-P236L | BaL | p24 | PBMC | 35.6
Cc1occc1C(=S)Nc1ccc(Cl)c(/C=N/OC(C)(C)C)c1 | RT-K103N Y181C | Pyridinone-resistant (RT Y181C K103N) | cytopathic effect / XTT | CEM + CEM-SS | >500
C[C@@H](CNC(=S)Nc1ccccn1)c1ccccc1 | RT-Y181C K103N | NNRTI-resistant (RT Y181C K103N) A17V | p24 | PBMC | 16
Cc1cc(C)cc(S(=O)(=O)c2c(C(=O)NNCCO)[nH]c3ccc(Cl)cc23)c1 | RT-Y181C | - | cytopathic effect / MTT | MT-4 | 40
Nc1ccn([C@H]2CC[C@@H](CO)O2)c(=O)n1 | RT-A98G V106I Y181C | BCF07 | - | PBMC | 0.4
CCc1cc(NCc2nc3c(Cl)ccc(Cl)c3o2)c(=O)[nH]c1C | RT-V179N | IIIB-Pyridinone(0.1)(RT-V179N | syncytia | CEM | 6.67
CC(=O)c1ccc(C)cc1NC(C(N)=O)c1c(Cl)cccc1Cl | RT-V108I | IIIB | MTT | MAGI | 31.1
O=C1N(Cc2ccc(CO)cc2)[C@H](COc2ccccc2)[C@H](O)[C@@H](O)[C@@H](COc2ccccc2)N1Cc1ccc(CO)cc1 | PR-L90M | IIIB | cytopathic effect / XTT | MT-4 | 1.71
CC(C)(C)C(=O)c1sc(C(=O)NCc2ccccc2)c(O)c1O | INTG-N155S | - | - | - | 1
Cc1ccnc2c1NC(=O)c1cccnc1N2C1CC1 | RT-Y181C | N119 RT-Y181C NNRTI-resistant | cytopathic effect | MT-2 | >570
CCc1c(C)[nH]c(=O)c(N(C)C)c1C(=O)c1cccc(C#N)c1 | RT-K101E K103N | - | cytopathic effect / MTT | MT-4 | 14
Cc1cccc(S(=O)(=O)c2c(C(=O)NNCCO)[nH]c3ccc(Cl)cc23)c1 | RT-K103N Y181C | - | cytopathic effect / MTT | MT-4 | >2857
Cc1csc(NC(=S)N[C@H](C)c2ccccc2)n1 | RT-Y181C K103N | NNRTI-resistant (RT Y181C K103N) A17V | p24 | PBMC | >196
O=c1[nH]cnc2c1ncn2[C@H]1CC[C@@H](CO)O1 | RT-L100I | IIIB-BHAP)(0.1)(RT-L100I | syncytia | CEM | 2.6
CCN[C@H]1CO[C@@H]2OCC[C@H](OC(=O)N[C@@H](Cc3ccccc3)[C@H](O)CN(CC(C)C)S(=O)(=O)c3ccc4nc(NC5CC5)sc4c3)[C@@H]21 | L10F L33I M36I M46I I54V K55R I62V L63P A71V G73S V82T | NL4-3 | p24 / luminescence | MT-4 | 1.2
CCc1c(C)[nH]c(=O)c(N(C)C)c1Cc1cccc(C)c1 | RT-Y181C | - | cytopathic effect / MTT | MT-4 | 30
Nc1ncnc2c1ncn2CCOCP(=O)(O)O | RT-L100I | IIIB-BHAP)(0.1)(RT-L100I | syncytia | CEM | 2.71
CN[C@H]1CO[C@@H]2OCC[C@H](OC(=O)N[C@@H](Cc3cccc(OC)c3)[C@H](O)CN(CC(C)C)S(=O)(=O)c3ccc4nc(NC(C)C)sc4c3)[C@@H]21 | L10F V32I L33F M46L I54M A71V | NL4-3 | p24 / luminescence | MT-4 | 1.2
O=C(NCc1ccc(F)cc1)c1nc(N2CCCCS2(=O)=O)c2cccnc2c1O | INTG-T66I S153Y | - | - | - | 3
Cc1csc(NC(=S)NC[C@H](C)c2ccccc2)n1 | RT-Y181C | NNRTI-resistant (RT Y181C) A17 | p24 | PBMC | 115
CCOCn1c(Cc2ccccc2)c(C(C)C)c(=O)[nH]c1=O | RT-E138K | - | cytopathic effect / MTT | MT-4 | 9.87

A second listing of 3 rows from above:

SMILES | changes | strain or isolate | read by | cells | result
Cc1csc(NC(=S)NC[C@H](C)c2ccccc2)n1 | RT-Y181C | NNRTI-resistant (RT Y181C) A17 | p24 | PBMC | 115
CCc1c(Sc2ccccn2)n(COCc2ccccc2)c(=O)[nH]c1=O | RT-Y181C | UC040-R (RT-Y181C) | cytopathic effect / XTT | CEM + CEM-SS | 110
Cc1cccc(S(=O)(=O)c2c(C(=O)NNCCO)[nH]c3ccc(Cl)cc23)c1 | RT-K103N Y181C | - | cytopathic effect / MTT | MT-4 | >2857